Compound potency records, mixed from different reports. Data source: NIAID ChemDB in PubChem.

Shared fields: whole-cell or culture tests; agent: HIV-1; endpoint: EC50

An empty or dashed field is not shown. Neighbouring rows are from separate reports. ECn: concentration that inhibits the pathogen or its effect by n%. Two numbers with a dash give a range or band.

structure,strain or isolate,mutations,cell line,method,result
COc1cc2c(cc1Cc1cccc(Cl)c1F)c(=O)c(C(=O)O)cn2[C@H](CO)C(C)C,,+G insertion (GGGGAGT),HOS,luciferase,<0.001 µM
C[C@H]1CN(C(=O)Cn2ccn3c(=O)c(O)c(-c4ncc(Cc5ccc(F)c(Cl)c5)s4)nc23)C[C@H](C)O1,,Q148H/G140S,HEK 293,luciferase,0.1–1 µM
CC(C)[C@H](NC(=O)[C@H](Cc1ccncc1)CS(=O)(=O)C(C)(C)C)C(=O)N[C@@H](Cc1ccccc1)[C@@H](O)[C@H](O)[C@H](Cc1ccccc1)NC(=O)[C@@H](NC(=O)[C@H](Cc1ccncc1)CS(=O)(=O)C(C)(C)C)C(C)C,D34,,PBLC,p24,25 µM
Cc1ccc(C(=O)NC[C@H](O)[C@@]23CC[C@]4(C)[C@H](CC[C@@H]5[C@@]6(C)CC[C@H](OC(=O)[C@H]7C[C@@H](C(=O)O)C7(C)C)C(C)(C)[C@@H]6CC[C@]54C)C2=C(C(C)C)C(=O)C3)cc1,92HT599,,MT-2,p24 / ELISA,<1 µM
COc1cccc(CN(C(=O)OC(C)(C)C)c2cccc(-c3ccc4ccn(Cc5cccc(C(=O)O)c5)c4c3)c2)c1,IIIB,,MAGI-CCR5,entry / luminescence,4.2 µM
CC1CCCCN1C(=O)Cn1ccn2c(=O)c(O)c(-c3ncc(Cc4ccc(F)cc4)s3)nc12,,QHGS,HEK 293,luciferase,0.5–1 µM
CC(C)[C@H](NC(=O)[C@H](Cc1cccc2ccccc12)CS(=O)(=O)C(C)(C)C)C(=O)N[C@@H](Cc1ccccc1)[C@H](O)[C@@H](O)[C@H](Cc1ccccc1)NC(=O)[C@@H](NC(=O)[C@H](Cc1cccc2ccccc12)CS(=O)(=O)C(C)(C)C)C(C)C,D34,,PBLC,p24,0.02 µM
Nc1c(C(=O)NCc2ccc(F)cc2F)c(=O)n(O)c2ncc(CCS(=O)(=O)c3ccccc3)cc12,,AGC (GGGAGC),HOS,luciferase,<0.003 µM
CC(C)C1=C2[C@H]3CC[C@@H]4[C@@]5(C)CC[C@H](OC(=O)[C@H]6C[C@@H](C(=O)O)C6(C)C)C(C)(C)[C@@H]5CC[C@@]4(C)[C@]3(C)CC[C@@]2([C@@H](O)CNCC(C)(C)NC(=O)c2ccc(CN3CCOCC3)cc2)CC1=O,92HT599,,MT-2,p24 / ELISA,<1 µM
CC1CC(C)CN(C(=O)Cn2cc(CS(C)(=O)=O)n3c(=O)c(O)c(C(=O)NCc4ccc(Cl)c(Cl)c4)nc23)C1,,QHGS,HEK 293,luciferase,<0.5 µM
CC(C)C1=C2[C@H]3CC[C@@H]4[C@@]5(C)CC[C@H](OC(=O)[C@H]6C[C@@H](C(=O)O)C6(C)C)C(C)(C)[C@@H]5CC[C@@]4(C)[C@]3(C)CC[C@@]2(CC(=O)NCC(C)(C)NC(=O)c2ccc(O[C@H]3CCOC3)cc2)CC1=O,92HT599,,MT-2,p24 / ELISA,<1 µM
CCOCn1c(Cc2ccccc2)c(C(C)C)c(=O)[nH]c1=O,GB8,,JM,p24,0.0016 µM
CC(C)C1=C2[C@H]3CC[C@@H]4[C@@]5(C)CC[C@H](OC(=O)[C@@H]6C[C@H](C(=O)O)C6(C)C)C(C)(C)[C@@H]5CC[C@@]4(C)[C@]3(C)CC[C@@]2(CC(=O)NCc2ccc(Cl)cc2)CC1=O,92HT599,,MT-2,p24 / ELISA,<1 µM
CC(C)[C@H](NC(=O)[C@H](Cc1ccccc1)NS(C)(=O)=O)C(=O)N[C@@H](Cc1ccccc1)[C@@H](O)[C@H](O)[C@H](Cc1ccccc1)NC(=O)[C@@H](NC(=O)[C@H](Cc1ccccc1)NS(C)(=O)=O)C(C)C,D34,,PBLC,p24,0.5 µM
C[C@H]1CN(C(=O)Cn2ccn3c(=O)c(O)c(-c4ncc(Cc5ccc(F)cc5)s4)nc23)C[C@H](C)O1,,,HEK 293,luciferase,0.001–0.1 µM
COc1ccc(C[C@H](NC(=O)[C@@H](NC(=O)[C@H](Cc2cccc3ccccc23)CS(=O)(=O)C(C)(C)C)C(C)C)[C@@H](O)[C@H](O)[C@H](Cc2ccc(OC)cc2OC)NC(=O)[C@@H](NC(=O)[C@H](Cc2cccc3ccccc23)CS(=O)(=O)C(C)(C)C)C(C)C)c(OC)c1,D34,,PBLC,p24,0.175 µM
CN1CCN(C(=O)Cn2ccn3c(=O)c(O)c(-c4ncc(Cc5ccc(F)cc5)s4)nc23)CC1,,Q148H/G140S,HEK 293,luciferase,>1 µM
CC(C)C1=C2[C@H]3CC[C@@H]4[C@@]5(C)CC[C@H](OC(=O)[C@H]6C[C@@H](C(=O)O)C6(C)C)C(C)(C)[C@@H]5CC[C@@]4(C)[C@]3(C)CC[C@@]2(CCNC(=O)c2ccc(Cl)cc2OCCN2CCCCC2)CC1=O,92HT599,,MT-2,p24 / ELISA,<1 µM
CC#C[C@]1(O)CC[C@H]2[C@@H]3CCC4=CC(=O)CCC4=C3[C@@H](c3ccc(N(C)C)cc3)C[C@@]21C,NL4-3-EGFP,,CEMx174 + CEM,GFP,~0.5 µM
COC(=O)c1cccc(Cn2ccc3cc(F)c(-c4ccc5ccn(Cc6cccc(C(=O)O)c6)c5c4)cc32)c1,IIIB,,MAGI-CCR5,entry / luminescence,0.4 µM
CC(C)C1=C2[C@H]3CC[C@@H]4[C@@]5(C)CC[C@H](OC(=O)[C@H]6C[C@@H](C(=O)O)C6(C)C)C(C)(C)[C@@H]5CC[C@@]4(C)[C@]3(C)CC[C@@]2([C@@H](O)CNCc2ccc(C(F)(F)F)cc2)CC1=O,92HT599,,MT-2,p24 / ELISA,<1 µM
CC1CC(C)CN(C(=O)Cn2cc(N3CCCS3(=O)=O)n3c(=O)c(O)c(C(=O)NCc4ccc(F)cc4S(=O)(=O)N(C)C)nc23)C1,,QHGS,HEK 293,luciferase,<0.5 µM
CC(C)C1=C2[C@H]3CC[C@@H]4[C@@]5(C)CC[C@H](OC(=O)[C@H]6C[C@@H](C(=O)O)C6(C)C)C(C)(C)[C@@H]5CC[C@@]4(C)[C@]3(C)CC[C@@]2([C@@H](O)CNCC(C)(C)N)CC1=O,92HT599,,MT-2,p24 / ELISA,<1 µM
C[C@H]1CN(C(=O)Cn2ccn3c(=O)c(O)c(-c4ncc(Cc5ccc(Cl)c(Cl)c5)s4)nc23)C[C@H](C)O1,,,HEK 293,luciferase,0.001–0.1 µM
Cc1cc(CNC(=O)C[C@@]23CC[C@]4(C)[C@H](CC[C@@H]5[C@@]6(C)CC[C@H](OC(=O)[C@H]7C[C@@H](C(=O)O)C7(C)C)C(C)(C)[C@@H]6CC[C@]54C)C2=C(C(C)C)C(=O)C3)c(C)o1,92HT599,,MT-2,p24 / ELISA,<1 µM
CCC(C)[C@H](NC(=O)[C@H](Cc1cccc2ccccc12)CS(=O)(=O)C(C)(C)C)C(=O)N[C@@H](Cc1ccccc1)[C@@H](O)[C@H](O)[C@H](Cc1ccccc1)NC(=O)[C@@H](NC(=O)[C@H](Cc1cccc2ccccc12)CS(=O)(=O)C(C)(C)C)C(C)CC,D34,,PBLC,p24,0.01 µM
CC(C)C1=C2[C@H]3CC[C@@H]4[C@@]5(C)CC[C@H](OC(=O)[C@H]6C[C@@H](C(=O)O)C6(C)C)C(C)(C)[C@@H]5CC[C@@]4(C)[C@]3(C)CC[C@@]2([C@@H](O)CNCCc2ccc(Cl)cc2)CC1=O,92HT599,,MT-2,p24 / ELISA,<1 µM
Nc1c(C(=O)NCc2ccc(F)cc2F)c(=O)n(O)c2ncc(CCS(=O)(=O)CCN3CCOCC3)cc12,,+G insertion (GGGGAGT),HOS,luciferase,0.1239 µM

A second listing of 3 rows from above:

structure | strain or isolate | mutations | cell line | method | result
CCOCn1c(Cc2ccccc2)c(C(C)C)c(=O)[nH]c1=O | GB8 |  | JM | p24 | 0.0016 µM
CC(C)[C@H](NC(=O)[C@H](Cc1ccncc1)CS(=O)(=O)C(C)(C)C)C(=O)N[C@@H](Cc1ccccc1)[C@@H](O)[C@H](O)[C@H](Cc1ccccc1)NC(=O)[C@@H](NC(=O)[C@H](Cc1ccncc1)CS(=O)(=O)C(C)(C)C)C(C)C | D34 |  | PBLC | p24 | 25 µM
CC1CC(C)CN(C(=O)Cn2cc(N3CCCS3(=O)=O)n3c(=O)c(O)c(C(=O)NCc4ccc(F)cc4S(=O)(=O)N(C)C)nc23)C1 |  | QHGS | HEK 293 | luciferase | <0.5 µM